A mixed list of measured activities; the numbers were collected in NIAID ChemDB.

All rows: tests in culture; species: HIV-1; method: cytopathic effect / MTT; read-out: EC50

ECn: concentration that inhibits the pathogen or its effect by n%.

{"compound": "CNc1nc2ccc(S(=O)(=O)N(CC(C)C)C[C@@H](O)[C@H](Cc3ccccc3)NC(=O)O[C@H]3CO[C@H]4OCC[C@H]43)cc2s1", "cell line": "MT-4", "strain": "LAI", "value": "0.001 µM"}
{"compound": "COc1c(Cl)cc(C(=CCCNC(=O)C[C@H]2CC[C@]3(C)C4CC[C@@]5(C)C(CC[C@@H]5CC(=O)NCCC=C(c5cc(Cl)c(OC)c(C(=O)O)c5)c5cc(Cl)c(OC)c(C(=O)O)c5)C4CC[C@H]3C2)c2cc(Cl)c(OC)c(C(=O)O)c2)cc1C(=O)O", "cell line": "MT-4", "strain": "IIIB", "value": "47 µM"}
{"compound": "CC(C)CN(C[C@@H](O)[C@H](Cc1ccccc1)NC(=O)O[C@H]1CCOC1)S(=O)(=O)c1ccc2nc(N)sc2c1", "changes": "PR-L10F M46I M71V I84V", "cell line": "MT-4", "strain": "F", "value": "0.105 µM"}
{"compound": "CCC(C)[C@@H](C(=O)N[C@@H](Cc1ccccc1)[C@H](O)CN(CC(C)C)S(=O)(=O)c1ccc(/C=N/O)cc1)N1CCN(Cc2c(C)ccnc2C)C1=O", "cell line": "MT-4", "value": "0.003 µM"}
{"compound": "CCc1c(C(=O)c2cc(C)cc(C)c2)n(Cc2ccnc(Cl)c2)c(=O)[nH]c1=O", "cell line": "MT-4", "value": "0.0017 µg/mL"}
{"compound": "COc1c(Cl)cc(C(=CCCCCN[C@@H]2CC[C@]3(C)C4CC[C@@]5(C)C(CC[C@@H]5C(C)CCCC(C)C)C4CC[C@H]3C2)c2cc(Cl)c(OC)c(C(=O)O)c2)cc1C(=O)O", "cell line": "CEM + CEM-SS", "strain": "RF", "value": ">200 µM"}
{"compound": "CCC(C)[C@@H](C(=O)N[C@@H](Cc1ccccc1)[C@H](O)CN(CC1CCCC1)S(=O)(=O)c1ccc(/C=N/O)cc1)N1CCN(Cc2cnccc2C)C1=O", "changes": "PR-L10F V32I M46I I47V Q68E I84V", "cell line": "MT-4", "strain": "A17 (LPV-resistant)", "value": "0.001 µM"}
{"compound": "CCc1c(C(=O)c2cc(C)cc(C)c2)n(Cc2ccnc(C)c2)c(=O)[nH]c1=O", "cell line": "MT-4", "value": "0.001 µg/mL"}
{"compound": "CCC(C)[C@@H](C(=O)N[C@@H](Cc1ccccc1)[C@H](O)CN(CC1CCCC1)S(=O)(=O)c1ccc(/C=N/O)cc1)N1CCN(Cc2cccnc2)C1=O", "cell line": "MT-4", "value": "0.002 µM"}
{"compound": "CSc1nc2ccccc2c(=O)n1/N=C1\\C(=O)N(CN2CCOCC2)c2ccc(Br)cc21", "cell line": "MT-4", "strain": "IIIB", "value": ">10 µM"}
{"compound": "CNc1nc2ccc(S(=O)(=O)N(CC(C)C)C[C@@H](O)[C@H](Cc3ccccc3)NC(=O)COc3c(C)cc(N)cc3C)cc2s1", "cell line": "MT-4", "strain": "LAI", "value": "0.003 µM"}
{"compound": "Cc1cc(Cl)cc(C(=O)c2c(C(C)C)c(=O)[nH]c(=O)n2Cc2ccnc(C#N)c2)c1", "cell line": "MT-4", "value": "0.0029 µg/mL"}
{"compound": "Cc1cc(C)cc(S(=O)(=O)c2c(C(N)=O)[nH]c3ccc(Cl)cc23)c1", "changes": "RT-K103R V179D P225H", "cell line": "C8166", "strain": "Efavirenz-resistant (RT K103R V179D P225H)", "value": "<0.08 µM"}
{"compound": "Cc1cc(F)cc(C(=O)c2c(C(C)C)c(=O)[nH]c(=O)n2Cc2ccncc2)c1", "cell line": "MT-4", "value": "0.0034 µg/mL"}
{"compound": "CSc1nc2ccccc2c(=O)n1/N=C1\\C(=O)N(CN(C)C)c2ccc(Cl)cc21", "cell line": "MT-4", "strain": "IIIB", "value": ">15 µM"}
{"compound": "COc1c(Cl)cc(C(=CCCCCN[C@H]2CC[C@]3(C)C4CC[C@@]5(C)C(CC[C@@H]5C(C)CCCC(C)C)C4CC[C@H]3C2)c2cc(Cl)c(OC)c(C(=O)O)c2)cc1C(=O)O", "cell line": "CEM + CEM-SS", "strain": "RF", "value": ">316 µM"}
{"compound": "CCC(C)[C@@H](C(=O)N[C@@H](Cc1ccccc1)[C@H](O)CN(CC(C)C)S(=O)(=O)c1ccc(/C=N/O)cc1)N1CCN(Cc2ccc(OC)nc2)C1=O", "cell line": "MT-4", "value": "0.001 µM"}
{"compound": "CCc1c(C(=O)c2cc(C)cc(C)c2)n(Cc2ccc(OC)cc2)c(=O)[nH]c1=O", "cell line": "MT-4", "value": "0.002 µg/mL"}
{"compound": "Cc1cccc(C)c1OCC(=O)N[C@@H](Cc1ccccc1)[C@H](O)CN(CC(C)C)S(=O)(=O)c1ccc2nc(N)sc2c1", "cell line": "MT-4", "strain": "LAI", "value": "0.007 µM"}
{"compound": "CC(C)(C)OC(=O)N1C2C3C4N(C(=O)OC(C)(C)C)C5C(C1C5(CO)[C@H]3c1ccccc1)[C@@H](c1ccccc1)C24CO", "cell line": "MT-4", "strain": "IIIB", "value": ">0.125 µM"}
{"compound": "CC(C)c1c(C(=O)c2ccccc2)n(Cc2ccncc2)c(=O)[nH]c1=O", "cell line": "MT-4", "value": "0.014 µg/mL"}
{"compound": "Cc1cn([C@H]2O[C@H](CO)[C@]3(N=[N+]=[N-])CO[C@@H]23)c(=O)[nH]c1=O", "cell line": "MT-4", "strain": "IIIB", "value": ">300 µM"}
{"compound": "CCc1c(C(=O)c2cc(F)cc(F)c2)n(Cc2ccncc2)c(=O)[nH]c1=O", "cell line": "MT-4", "value": "0.0601 µg/mL"}
{"compound": "NC(=O)c1[nH]c2ccc(Cl)cc2c1S(=O)(=O)c1ccccc1", "changes": "RT-K103R V179D P225H", "cell line": "C8166", "strain": "Efavirenz-resistant (RT K103R V179D P225H)", "value": "<0.9 µM"}
{"compound": "CSc1nc2ccccc2c(=O)n1/N=C1\\C(=O)Nc2ccc(Br)cc21", "cell line": "MT-4", "strain": "IIIB", "value": ">8 µM"}
{"compound": "Cc1ccc(S(=O)(=O)c2c(C(N)=O)[nH]c3ccc(Cl)cc23)c(C)c1", "changes": "RT-K103N Y181C", "cell line": "MT-4", "strain": "A17", "value": "10 µM"}
{"compound": "CC(C)CN(C[C@@H](O)[C@H](Cc1ccccc1)NC(=O)O[C@H]1CO[C@H]2OCC[C@H]21)S(=O)(=O)c1ccc2nc(N)sc2c1", "cell line": "MT-4", "strain": "LAI", "value": "0.007 µM"}
{"compound": "CCc1c(C(=O)c2ccccc2)n(Cc2ccncc2)c(=O)[nH]c1=O", "cell line": "MT-4", "value": "0.0606 µg/mL"}
{"compound": "CSc1nc2ccccc2c(=O)n1/N=C1\\C(=O)Nc2ccc(Cl)cc21", "cell line": "MT-4", "strain": "IIIB", "value": ">40 µM"}

Repeating the first 3 entries:

compound | changes | cell line | strain | value
CNc1nc2ccc(S(=O)(=O)N(CC(C)C)C[C@@H](O)[C@H](Cc3ccccc3)NC(=O)O[C@H]3CO[C@H]4OCC[C@H]43)cc2s1 | - | MT-4 | LAI | 0.001 µM
COc1c(Cl)cc(C(=CCCNC(=O)C[C@H]2CC[C@]3(C)C4CC[C@@]5(C)C(CC[C@@H]5CC(=O)NCCC=C(c5cc(Cl)c(OC)c(C(=O)O)c5)c5cc(Cl)c(OC)c(C(=O)O)c5)C4CC[C@H]3C2)c2cc(Cl)c(OC)c(C(=O)O)c2)cc1C(=O)O | - | MT-4 | IIIB | 47 µM
CC(C)CN(C[C@@H](O)[C@H](Cc1ccccc1)NC(=O)O[C@H]1CCOC1)S(=O)(=O)c1ccc2nc(N)sc2c1 | PR-L10F M46I M71V I84V | MT-4 | F | 0.105 µM

Conditions beyond the fields shown may differ between rows. Blank or dashed fields: not listed here.